Measured values from several laboratories, pooled; numbers as filed in NIAID ChemDB.

Common to all: cytotoxicity tests; cell line: MT-4; read-out: CC50

CCn is the concentration with n% toxicity to the cells.

structure	method	result
COc1ccc(C(=O)CSc2nc3nc(C4=CCC=C=N4)c(-c4ccccn4)nc3c(=O)[nH]2)cc1	MTT / absorbance	36.1 µM
CCc1c(Cc2ccccc2C)n(COCC#Cc2ccc(NC(=O)CBr)cc2)c(=O)[nH]c1=O	MTT	41 µM
Cn1cc(C(=O)O)c(=O)c2cc(N)c(N3CCN(c4nc5ccccc5s4)CC3)nc21	MTT	0.34 µM
NOCc1ccccc1F		74.7 µg/mL
[N-]=[N+]=N[C@H]1C[C@@H](CO)S[C@@H]1n1cnc2c(N)ncnc21		>100 µM
OC1/C(=C/c2ccc(Cl)c(Cl)c2)CCC/C1=C\c1ccc(Cl)c(Cl)c1	MTT	102 µM
NC1=NC(N)c2nc(-c3ccccn3)c(-c3ccccn3)nc2N1	MTT / absorbance	10.52 µM
CCOC(=O)CNc1nc(NC(=O)Nc2ccccc2)nc(Oc2cc(=O)oc3ccccc23)n1	MTT	>125 µg/mL
CCc1c(Cc2cccc3ccccc23)n2c(nc1=O)SCC2OC		>100 µM
O=C1/C(=C/c2ccc(O)c(O)c2)CN(Cc2ccccc2)C/C1=C\c1ccc(O)c(O)c1	MTT	4.7 µM
COC(=O)Cc1cn([C@@H]2C=C[C@H](COP(=O)(N[C@@H](C)C(=O)OC)Oc3ccccc3)O2)c(=O)[nH]c1=O	MTT	>100 µM
Cc1ccccc1Sc1c(C(=O)NCCO)[nH]c2ccc(Cl)cc12	MTT	>100 µM
NOCc1ccccc1		82.3 µg/mL
O=C(NCc1ccc(F)cc1)c1nc2n(c(=O)c1O)CCN(Cc1cn[nH]n1)C2	microscopy	>1 µM
[N-]=[N+]=N[C@H]1C[C@H](CO)S[C@@H]1n1cnc2c(N)ncnc21		>100 µM
COc1ncnc(NS(=O)(=O)c2ccc(N=C3C(=O)N(CN4CCCC4)c4ccc(C)cc43)cc2)c1OC		10.1 µg/mL
CC(C)c1c(Cc2ccccc2)nc(SCC2OCCO2)[nH]c1=O		<100 µM
COc1ncnc(NS(=O)(=O)c2ccc(N=C3C(=O)N(CN4CCCCC4)c4ccc(C)cc43)cc2)c1OC		12.6 µg/mL
COC(=O)[C@H](C)NP(=O)(OC[C@@H]1C=C[C@H](n2cc(CC(=O)NCCCCCCCCNC(=O)C(F)(F)F)c(=O)[nH]c2=O)O1)Oc1ccccc1	MTT	1 µM
CCc1c(-c2coc(CC/C(C)=C/c3ccccc3)n2)oc(OC)c(C)c1=O		>6.6 µM
CCOC(CSc1nc(Cc2ccccc2)c(C(C)C)c(=O)[nH]1)OCC		<100 µM
Nc1nc2nc(-c3ccccn3)c(-c3ccccn3)nc2c(=O)[nH]1	MTT / absorbance	67.22 µM
Cn1c2ccccc2c(=O)c2c(O)cccc21		15 µg/mL
Cc1ccc(S(=O)(=O)N2C(=O)CSC2c2cccc(Br)c2)cc1	MTT	>125 µM
COC(=O)Cc1cn([C@H]2C=C[C@@H](CO)O2)c(=O)[nH]c1=O	MTT	330 µM
NC(=O)c1[nH]c2ccc(Cl)cc2c1S(=O)(=O)c1ccccc1	MTT	84 µM
Cc1cn([C@@H]2S[C@@H](CO)C[C@@H]2N=[N+]=[N-])c(=O)[nH]c1=O		>100 µM
Cc1cn([C@H]2C[C@H](N=[N+]=[N-])[C@@H](CO)O2)c(=O)[nH]c1=O	MTT	436 µM
Cn1cc(C(=O)O)c(=O)c2cncc(N3CCN(c4nc5ccccc5s4)CC3)c21	MTT	25.57 µM
COc1ncnc(NS(=O)(=O)c2ccc(N=C3C(=O)N(CN4CCOCC4)c4ccc(C)cc43)cc2)c1OC		9.3 µg/mL
CCOC1CSc2nc(Cc3ccccc3)c(C(C)C)c(=O)n21		<100 µM
c1ccc(CCNCc2ccc(CN3CCCNCCNCCCNCC3)cc2)nc1		>250 µg/mL
CC1(C)c2nc(C(=O)NCc3ccc(F)cc3)c(O)c(=O)n2CCN1Cc1cn[nH]c1	microscopy	>1 µM
Cc1ccc(NC(=O)CSc2ncnn2-c2ccc(Cl)cc2Cl)c(Br)c1	MTT	184 µM
O=S(=O)(O)c1cc(O)c2c(NS(=O)(=O)c3ccc(-c4ccc(S(=O)(=O)Nc5cc(S(=O)(=O)O)cc6cc(S(=O)(=O)O)cc(O)c56)cc4)cc3)cc(S(=O)(=O)O)cc2c1		310 µg/mL
COc1ncnc(NS(=O)(=O)c2ccc(N=C3C(=O)N(CN4CCOCC4)c4ccccc43)cc2)c1OC		<1 µg/mL
O=C1/C(=C/c2ccc(Cl)c(Cl)c2)CSC/C1=C\c1ccc(Cl)c(Cl)c1	MTT	31 µM
C[C@H](CSCC(N)=O)C(=O)N1CCC[C@@H]1C(=O)O	MTT	3.12 µg/mL
COc1ccc(CCNc2nc(NC(=S)Nc3ccccc3)nc(Oc3cc(=O)oc4ccccc34)n2)cc1OC	MTT	15.45 µg/mL
[C-]#[N+]C[C@H]1O[C@@H](n2cc(C)c(=O)[nH]c2=O)C[C@@H]1O		>200 µM
NOCc1cccc(Cl)c1Cl		44.8 µg/mL
CCOC(=O)CC1C/C(=C\c2cc(O)c(O)c(O)c2)C(=O)/C(=C/c2cc(O)c(O)c(O)c2)C1	MTT	40 µM
COc1ncnc(NS(=O)(=O)c2ccc(N=C3C(=O)Nc4ccccc43)cc2)c1OC		104.1 µg/mL
Cc1cn([C@H]2C[C@H](N=[N+]=[N-])[C@@H](CO)O2)c(=O)[nH]c1=O	MTT	>2 µM
Cc1cn(CCO[C@H]2C=C[C@@H](CO)O2)c(=O)[nH]c1=O	MTT	29 µg/mL
COc1ncnc(NS(=O)(=O)c2ccc(N=C3C(=O)N(CN4CCNCC4)c4ccccc43)cc2)c1OC		2.3 µg/mL
COc1cccc2c1c(/C(O)=C/C(=O)C(=O)O)cn2Cc1cc(F)ccc1F.COc1cccc2c1c(/C(O)=C/C(=O)C(=O)O)cn2Cc1cc(F)ccc1F.[Mg+2].[Mg+2]	MTT	15 µM
CCc1c(Cc2cc(C)cc(C)c2)n(COCC#Cc2cccc(CO)c2)c(=O)[nH]c1=O	MTT	34 µM
C[C@H](CS)C(=O)N1CCC[C@@H]1c1nc2ncccc2[nH]1	MTT	4.24 µg/mL
O=c1[nH]c(=O)c2nc(-c3ccccn3)c(-c3ccccn3)nc2[nH]1	MTT / absorbance	103 µM
Nn1cc(C(=O)O)c(=O)c2ccc(N3CCN(c4ccccn4)CC3)nc21	MTT	173 µM
CCOC(=O)CNc1nc(Nc2ccc3ccccc3c2)nc(Oc2cc(=O)oc3ccccc23)n1	MTT	46.53 µg/mL
COc1cccc2c1c(/C(O)=C\C(=O)C(=O)O)cn2Cc1ccccc1F	MTT	33.5 µM
COC(=O)[C@H](C)NP(=O)(OC[C@H]1C=C[C@@H](n2cc(CC(=O)NCCCCCCNC(=O)C(F)(F)F)c(=O)[nH]c2=O)O1)Oc1ccccc1	MTT	>1 µM
S=c1[nH]c(=S)c2nc(-c3ccccn3)c(-c3ccccn3)nc2[nH]1	MTT / absorbance	93.23 µM
NOCc1cc(Cl)ccc1Cl		47 µg/mL
CN(CC1c2nc(C(=O)NCc3ccc(F)cc3)c(O)c(=O)n2CCN1C)C(=O)CS(C)(=O)=O	microscopy	>1 µM
COC(=O)Cc1cn([C@H]2C=C[C@@H](COP(=O)(N[C@@H](C)C(=O)OC)Oc3ccccc3)O2)c(=O)[nH]c1=O	MTT	>100 µM
CCc1c(Cc2cc(C)cc(C)c2)n(COCC#Cc2ccc([N+](=O)[O-])cc2)c(=O)[nH]c1=O	MTT	7 µM
CCc1c(Cc2ccccc2)nc(SCC(OC)OC)[nH]c1=O		<100 µM
[N-]=[N+]=N[C@@H]1C[C@@H](CO)S[C@@H]1n1cnc2c(Cl)ncnc21		>100 µM
Cc1ccc(S(=O)(=O)N2C(=O)CSC2c2ccccc2)cc1	MTT	>125 µM
Cc1cnc(CNCc2ccc(CN3CCCNCCNCCCNCC3)cc2)cn1		>250 µg/mL
Cc1ccc(S(=O)(=O)N2C(=O)CSC2c2ccc(C(C)C)cc2)cc1		>125 µM
Cl.NCCn1nnc2ccccc21	MTT	>100 µM
COc1ccc(CCNc2nc(NC(=O)Nc3cccc(Cl)c3)nc(Oc3cc(=O)oc4ccccc34)n2)cc1OC	MTT	25.23 µg/mL
C[C@H](CSCC(=O)O)C(=O)N1CCC[C@@H]1C(=O)O	MTT	125 µg/mL
CN1CCn2c(nc(C(=O)NCc3ccc(F)cc3)c(O)c2=O)C1CN(C)S(=O)(=O)N(C)C	microscopy	>10 µM
[C-]#[N+]C[C@H]1O[C@@H](n2ccc(=O)[nH]c2=O)C[C@@H]1N=[N+]=[N-]		>40 µM
O=C(NCCO)c1[nH]c2ccc(Cl)cc2c1Sc1ccccc1	MTT	>100 µM
Cn1cc(C(=O)O)c(=O)c2cc(N)c(N3CCN(c4ccccn4)CC3)nc21	MTT	51.86 µM
C[C@H](CS)C(=O)N1CCC[C@@H]1c1nc2c(Cl)cccc2[nH]1	MTT	28.17 µg/mL
Nc1nc(NC2CC2)c2ncn([C@H]3CO[C@@H](CO)O3)c2n1	MTT	>250 µM
C=Cn1cc(C(=O)O)c(=O)c2ccc(N3CCN(c4ccccn4)CC3)nc21	MTT	16.66 µM
Cc1ccc(S(=O)(=O)N2C(=O)CSC2c2ccccc2Cl)cc1	MTT	>125 µM
COc1cccc2c1c(/C(O)=C/C(=O)C(=O)O)cn2Cc1ccccc1F.COc1cccc2c1c(/C(O)=C/C(=O)C(=O)O)cn2Cc1ccccc1F.[Mg+2].[Mg+2]	MTT	15.5 µM
CN1CCN(S(=O)(=O)N(C)C2COCCn3c2nc(C(=O)NCc2ccc(F)cc2)c(O)c3=O)CC1	microscopy	>1 µM
Cc1ccc(S(=O)(=O)N2C(=O)CSC2c2ccccc2O)cc1	MTT	>125 µM
CCc1c(Cc2cc(C)cc(C)c2)n(COCc2cn(-c3cccnc3)nn2)c(=O)[nH]c1=O	MTT	>100 µM

Repeating the final 10 entries:

| structure | method | result |
|---|---|---|
| O=C(NCCO)c1[nH]c2ccc(Cl)cc2c1Sc1ccccc1 | MTT | >100 µM |
| Cn1cc(C(=O)O)c(=O)c2cc(N)c(N3CCN(c4ccccn4)CC3)nc21 | MTT | 51.86 µM |
| C[C@H](CS)C(=O)N1CCC[C@@H]1c1nc2c(Cl)cccc2[nH]1 | MTT | 28.17 µg/mL |
| Nc1nc(NC2CC2)c2ncn([C@H]3CO[C@@H](CO)O3)c2n1 | MTT | >250 µM |
| C=Cn1cc(C(=O)O)c(=O)c2ccc(N3CCN(c4ccccn4)CC3)nc21 | MTT | 16.66 µM |
| Cc1ccc(S(=O)(=O)N2C(=O)CSC2c2ccccc2Cl)cc1 | MTT | >125 µM |
| COc1cccc2c1c(/C(O)=C/C(=O)C(=O)O)cn2Cc1ccccc1F.COc1cccc2c1c(/C(O)=C/C(=O)C(=O)O)cn2Cc1ccccc1F.[Mg+2].[Mg+2] | MTT | 15.5 µM |
| CN1CCN(S(=O)(=O)N(C)C2COCCn3c2nc(C(=O)NCc2ccc(F)cc2)c(O)c3=O)CC1 | microscopy | >1 µM |
| Cc1ccc(S(=O)(=O)N2C(=O)CSC2c2ccccc2O)cc1 | MTT | >125 µM |
| CCc1c(Cc2cc(C)cc(C)c2)n(COCc2cn(-c3cccnc3)nn2)c(=O)[nH]c1=O | MTT | >100 µM |

Blank or dashed fields: not listed here. Conditions beyond the fields shown may differ between rows.